Columns and labels:
L929 cell line [1] = test: MTT assay, effect on proliferation (5 days); assay type: cell-based, mouse; conditions: IC50 L929 5 days / MIC M. tuberculosis H37Rv
L929 cell line [2] = test: MTT assay, acute toxic effect (24 h); assay type: cell-based, mouse; conditions: IC50 L929 1 day (acute toxic effect) / MIC M. tuberculosis H37Rv

SMILES: CNCCOc1nn(-c2c(Cl)cc(Cl)cc2Cl)c(C(Cl)Cl)c1[N+](=O)[O-].Cl [LX079, 2-((5-(Dichloromethyl)-4-nitro-1-(2,4,6-trichlorophenyl)-1H-pyrazol-3-yl)oxy)-N-methylethanaminium chloride]
- SI (IC50/MIC) (L929 cell line [1]): exceeding 10
- SI (IC50/MIC) (L929 cell line [1]; listed as vz0825): 12.2
- SI (IC50/MIC) (L929 cell line [2]): 65.3
- SI (IC50/MIC) (L929 cell line [2]; listed as vz0825): 30.6
